The values below are quoted from earlier work in publication PMC8611036, “An integrated method for optimized identification of effective natural inhibitors against SARS-CoV-2 3CLpro” (Scientific Reports, 2021).

Like-named read-outs stand apart in the source and are kept apart here.

The target in this data set is SARS-CoV-2 3CLpro (Severe acute respiratory syndrome coronavirus 2, UniProt P0DTD1). To be noted: cited from earlier work; for IC50: unit not printed (pIC50 corresponds to µM).
Where [1] appears, read: test set (SARS-CoV-2 3CLpro inhibitors), collected from literature.
[2] abbreviates: from literature IC50, ref Zhu, Wei et al. ACS pharmacology & translational science vol. 3,5 (2020): 1008-1016.
[3] abbreviates: ref Zhu, Wei et al. ACS pharmacology & translational science vol. 3,5 (2020): 1008-1016.
Where [4] appears, read: from literature IC50, ref Su, Hai-Xia et al. Acta pharmacologica Sinica vol. 41,9 (2020): 1167-1177.
Setting [5] is: ref Su, Hai-Xia et al. Acta pharmacologica Sinica vol. 41,9 (2020): 1167-1177.

Turning to `O=C[C@H](C[C@@H]1CCNC1=O)NC(=O)[C@H](Cc1cccc(F)c1)NC(=O)c1cc2ccccc2[nH]1` (single isomer, unassigned), the negative logarithm of the IC50 (pIC50) by setting is: (from literature IC50, ref Ullrich, Sven, and Christoph Nitsche. Bioorganic & medicinal chemistry letters vol. 30,17 (2020): 127377) 7.398; under setting [1], 7.398. In addition, the IC50 (ref Ullrich, Sven, and Christoph Nitsche. Bioorganic & medicinal chemistry letters vol. 30,17 (2020): 127377) was 0.04 µM.
Take `O=C1c2ccccc2-[n+]2ccc3c([nH]c4ccccc43)c21`: the pIC50 (from literature IC50, ref Zhu, Wei et al. ACS pharmacology & translational science vol. 3,5 (2020): 1008-1016, tested form: Cl) is 5.002. In addition, under “ref Zhu, Wei et al. ACS pharmacology & translational science vol. 3,5 (2020): 1008-1016, tested form: Cl”, the IC50 was 9.96 µM.
Take `COc1ccc2cc(-c3cc(-c4cc(Cl)cc(Cl)c4)nn3[C@@H](C)c3ccc(C(=O)NCCC(=O)O)cc3)ccc2c1`: under setting [2], the pIC50 was 4.614. For the same molecule, the IC50 under setting [3] was 24.3 µM.
As to `CCCCCCCCCCCCCCCc1cccc(O)c1C(=O)O`, the pIC50 was 4.957 under setting [2] and 4.957 under setting [1]. The 50% inhibitory concentration (IC50) under setting [3] is 11 µM.
As for `CC#C[C@@H](CC(=O)O)c1ccc(OCc2cccc(-c3ccc(C(F)(F)F)cc3)c2)cc1`, the pIC50 under setting [2] is 4.617. Further, the IC50 under setting [3] was 24.2 µM.
Consider `COCCn1c2c([n+](Cc3cnccn3)c1C)C(=O)c1ccccc1C2=O`, for which the pIC50 was 4.866 (from literature IC50, ref Zhu, Wei et al. ACS pharmacology & translational science vol. 3,5 (2020): 1008-1016, tested form: Br) and 4.866 (test set (SARS-CoV-2 3CLpro inhibitors), collected from literature, tested form: Br).
For `O=C1C(SCCO)=C(SCCO)C(=O)c2ccccc21`, the negative-log IC50 (pIC50) is, setting by setting: under setting [2], 4.746; under setting [1], 4.746.
Consider `CC1OC(OCC2OC(OCCc3ccc(O)c(O)c3)C(O)C(OC(=O)C=Cc3ccc(O)c(O)c3)C2O)C(O)C(O)C1O` (single isomer, unassigned) [CMP64], for which, under setting [4], the negative-log IC50 (pIC50) was 5.233. Under setting [5], the half-maximal inhibitory concentration (IC50) was 5.85 µM.
As for `CC1OC(OCC2OC(OCCc3ccc(O)c(O)c3)C(O)C(OC(=O)C=Cc3ccc(O)c(O)c3)C2O)C(O)C(O)C1O` (single isomer, unassigned) [CMP63], the pIC50 under setting [4] is recorded as 5.262. Further, the IC50 under setting [5] is 5.47 µM.
In the case of `CC1OC(OC2C(O)C(OCCc3ccc(O)c(O)c3)OC(COC3OCC(O)(CO)C3O)C2OC(=O)C=Cc2ccc(O)c(O)c2)C(O)C(O)C1O` (stereo not drawn), the pIC50 under setting [4] was 5.541. Further, the IC50 under setting [5] was 2.88 µM.
For `NS(=O)(=O)c1cccc2c1C(=O)c1cccc(O)c1C2=O`, the pIC50 under setting [2] is reported as 5.007. In addition, under setting [3], the IC50 is 9.84 µM.
For `CC1(C)CCC2=C(O1)c1ccccc1C(=O)C2=O`, the pIC50 under setting [2] is reported as 4.875 and the negative logarithm of the IC50 (pIC50) under setting [1] is 4.875. Besides, the IC50 under setting [3] was 13.3 µM.
`CC(NC(=O)[C@H](Cc1ccccc1)NC(=O)OCc1ccccc1)C(=O)CF` (stereo partly drawn): the pIC50 under setting [2] is listed as 4.943. Further, the IC50 under setting [3] is 11.4 µM.
As to `O=c1c(O)c(-c2ccc(O)c(O)c2)oc2cc(O)c(O)c(O)c12`, the pIC50 is recorded as 5.907 (from literature IC50, ref Liu, Hong-Bo et al. bioRxiv 2020.04.10.035824) and 5.907 under setting [1].
As for `CCCCCCCCCCCCCCCCC(C(=O)O)C(O)(CC(=O)O)C(=O)O` (stereo not drawn), the negative-log IC50 (pIC50) under setting [2] is 4.628. Besides, under setting [3], the IC50 was 23.5 µM.
